This series addresses T1, 6XHis-CsgD STm (Salmonella enterica serovar Typhimurium SL1344) (UniProt O54294).
T1 sequence (looked up): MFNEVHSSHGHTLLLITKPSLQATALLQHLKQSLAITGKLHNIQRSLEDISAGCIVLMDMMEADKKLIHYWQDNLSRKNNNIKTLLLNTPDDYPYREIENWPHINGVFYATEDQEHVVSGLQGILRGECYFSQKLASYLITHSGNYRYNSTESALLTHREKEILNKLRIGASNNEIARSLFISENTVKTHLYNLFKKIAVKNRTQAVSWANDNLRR
In words: EMSA. As to conditions: shift begins at 0.5 ug, complete at 1 ug protein in 20 uL, EMSA: 50 mM NaCl, 20 mM Tris pH 7.4, 0.02% sodium azide, 40 min at 30 C, 5% native PAGE in 0.5x TAE with 2% glycerol, 0.1-8 ug protein, recombinant protein, residues 1-216, protein details: N-terminal 6xHis (pET14b), label: 5'-FAM on the curli-inter-F strand, probe letters rebuilt from the primers and the genome.

Data on one sequence can be found in article PMC10492818.

Protein sequences can lack the tags named with them.

In the case of “CCCATGGGAAGCATAAGAACATCCCCATGGCGGCATAACACACACCAACACTTCATTTTTTAGGTGCGCGATACACTATCTTCTGTGGCCAAAAATCAATTATAAAAAATCACATGGCTATCGTTTTATTAGCACTTTGGTATGAGCTTAAATAACAAAATACCACGCGTGGGTGAGTTATTAAAAATGTTTCCACGGACATACTCTTCATCGTAACGACGCGTTAACAAAAAACGCATGTCGCTAACAAGGTAATAGATAATTTTCGCTATGTACGACCAGGTCCAGGGTGACAGCATGAAAAACAAATTGTTATTTATGATGTTGACAATACTGGGTGCG (double strand) [PcsgB]”, the binding result is listed as “binds”.
